Target: T1, human α7 nicotinic acetylcholine receptor (human, UniProt P36544 23-502, N-linked glycan on Asn23 (printed numbering))
T1 construct: Homopentamer; On HEK293 or CHO cells (with NACHO) and on Xenopus oocytes; for cryo-EM it was purified and put into nanodiscs with 100 µM nicotine; also called α7-nAChR; hα7-nAChR
Assay: immunofluorescence expression control on HEK293 cells (FIG. 13)

B1: α-bungarotoxin (ligand)
chain: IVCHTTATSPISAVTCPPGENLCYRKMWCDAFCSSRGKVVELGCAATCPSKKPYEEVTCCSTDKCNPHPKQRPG
  binding result: binds
